Compound potency records, mixed from different reports. Data source: NIAID ChemDB in PubChem.

Common to all: tests in culture; agent: Mycobacterium avium; read-out: EC50

Conditions beyond the fields shown may differ between rows. Blank or dashed fields: not listed here. ECn: concentration that inhibits the pathogen or its effect by n%.

smiles	strain	result
CO[C@@H]1[C@H](O)[C@@H](CO)O[C@H]1n1cc(C)c(=O)[nH]c1=O	ATCC 25291	>50 µg/mL
O=c1[nH]c(=O)n(COCCO)cc1Cl	ATCC 25291	>100 µg/mL
CC(=O)OC[C@H]1O[C@@H](n2cc(/C=C/Br)c(=O)[nH]c2=O)C[C@@H]1OC(C)=O	ATCC 25291	>50 µg/mL
CC(=O)/C(N=Nc1ccc(C(=O)N/N=C/c2ccc([N+](=O)[O-])o2)cc1)=C(/O)c1ccccc1	-	>12.5 µg/mL
O=c1ccn([C@H]2C[C@H](F)[C@@H](CO)O2)c(=O)[nH]1	ATCC 25291	>50 µg/mL
O=C1NC(Nc2ccc(Cl)cc2)=N/C1=C\c1ccc(Cl)cc1Cl	-	<12.5 µg/mL
CCOC(=O)/C(N=Nc1ccc(C(=O)N/N=C/c2ccc([N+](=O)[O-])o2)cc1)=C(\C)O	-	>12.5 µg/mL
[N-]=[N+]=NC(CBr)c1cn(COC(CO)CO)c(=O)[nH]c1=O	ATCC 25291	>100 µg/mL
O=C1NC(=Nc2ccc(Cl)cc2Cl)N/C1=C\c1ccc(Cl)cc1Cl	-	>12.5 µg/mL
O=c1[nH]c(=O)n([C@H]2C[C@H](O)[C@@H](CO)O2)cc1F	ATCC 25291	<50 µg/mL
N#C/C(=C\c1ccccc1)n1nnc2ccccc21	-	<12.5 µg/mL
CC[C@H]1OC(=O)[C@H](C)[C@@H](O[C@H]2C[C@@](C)(OC)[C@@H](O)[C@H](C)O2)[C@H](C)[C@@H](O[C@@H]2O[C@H](C)C[C@H](N(C)C)[C@H]2O)[C@](C)(OC)C[C@@H](C)C(=O)[C@H](C)[C@@H](O)[C@]1(C)O	15 isolates (HIV+)	5 µg/mL
CC(=O)O[C@H]1C[C@H](n2cc(C(F)CCl)c(=O)[nH]c2=O)O[C@@H]1CO	ATCC 25291	<5 µg/mL
O=c1[nH]c(=O)n(COCCO)cc1Br	ATCC 25291	>100 µg/mL
O=C1NC(=NCc2ccccc2)N/C1=C\c1ccc(Cl)cc1	-	>12.5 µg/mL
[N-]=[N+]=NC(CI)c1cn(COCCO)c(=O)[nH]c1=O	ATCC 25291	10 µg/mL
CC[C@H]1OC(=O)[C@H](C)[C@@H](O[C@H]2C[C@@](C)(OC)[C@@H](O)[C@H](C)O2)[C@H](C)[C@@H](O[C@@H]2O[C@H](C)C[C@H](N(C)C)[C@H]2O)[C@](C)(O)C[C@@H](C)/C(=N\OCOCCOC)[C@H](C)[C@@H](O)[C@]1(C)O	15 isolates (HIV+)	7.5 µg/mL
COCc1cn([C@H]2C[C@H](O)[C@@H](CO)O2)c(=O)[nH]c1=O	ATCC 25291	>50 µg/mL
O=c1[nH]c(=O)n(COCCO)cc1F	ATCC 25291	>100 µg/mL

Repeating the first 2 entries:

smiles | strain | result
CO[C@@H]1[C@H](O)[C@@H](CO)O[C@H]1n1cc(C)c(=O)[nH]c1=O | ATCC 25291 | >50 µg/mL
O=c1[nH]c(=O)n(COCCO)cc1Cl | ATCC 25291 | >100 µg/mL